Laboratory results from publication PMC6135047.

Protein sequences, listed by entry. Tags and fused reporters are not part of them. Residues count along the entry.
UniProt Q05938, 1-176: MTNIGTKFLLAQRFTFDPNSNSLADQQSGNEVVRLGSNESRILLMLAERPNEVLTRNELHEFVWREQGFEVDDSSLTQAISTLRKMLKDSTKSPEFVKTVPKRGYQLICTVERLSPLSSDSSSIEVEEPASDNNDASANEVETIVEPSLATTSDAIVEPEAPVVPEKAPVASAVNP

How the values were obtained:
His-ToxR [1] = biological target: His-ToxR (UniProt Q05938); assay: EMSA; conditions: salmon sperm DNA; recombinant protein; residues 1-176; protein details: 6xHis (pET28a); label: 5'-32P; probe letters rebuilt from the primers and the genome
His-ToxR [2] = biological target: His-ToxR (UniProt Q05938); assay: DNase I footprinting; conditions: recombinant protein; residues 1-176; protein details: 6xHis (pET28a); label: 5'-32P on one strand; probe letters rebuilt from the primers and the genome

Sequence	binding result (His-ToxR [1])	binding result (His-ToxR [2])
CAGATTGCTGAATATCGGTGATGTATGAGAAATCGTTCAATGTAAAAAATATGCGCAATGATTGATGCTGGGAGAATAGAAAGGATGAGGTGGTATTTATAGTGAATATTGGTCGGGAGTTTTTAGAAAACTGAAAACGCCCTAAAAAAACACGTCTGATTTTGACAGCCTGATAAAAACGCACTTCATATAATTCGCTTGTATTGTACGAAAGGAGTGCAAGTGAATGAGTATTATCAATAGTCAGATAGCAACCAACACCAAGTTTGATGCATCGGTCCGGAATGGATTGGAATCGTCTCGTGCGGACAGTGCCGTAAAAGGCAGTTATCGAGGTGAGACCGTGCGCGTGCACAACGCCACTCAATCGCTT (double strand) [VP1667 (vopN) promoter EMSA probe]	binds	–
CCGATCTTGTGAGCCTAGACTAATCAAAAATGGAGAATCAGATGAGAGTATTTTTTGATCAATTCTGTATTTTTTTGAGGTCAATTCACATCTACCTGCTGTTGTATGGTGTCAGCGTACCATTCGACAAAGAATACAATGCTATCACAATAAATTTCTTATTTCGAACTTTGATTTTTCACAATAAAGCGCATGGATATCTGGTGTTTTTTCAGGAGTTTTCAGATTAACTCGCTTGAGTGACAGCTGCGTAAGCTTGAATATCAAACTCTAGCTCAGGGGGATTGAGATTCGTAGCGTATAAGTGCTGTTCATGCCGTTGATTTCGTTTTACATGTGATTTATTAGTATCGAGGAAGAACCGGATGTGTTACTGATAAACTTGGGCAATG (double strand) [vtrA footprint probe]	–	binds
CCGATCTTGTGAGCCTAGACTAATCAAAAATGGAGAATCAGATGAGAGTATTTTTTGATCAATTCTGTATTTTTTTGAGGTCAATTCACATCTACCTGCTGTTGTATGGTGTCAGCGTACCATTCGACAAAGAATACAATGCTATCACAATAAATTTCTTATTTCGAACTTTGATTTTTCACAATAAAGCGCATGGATATCTGGTGTTTTTTCAGGAGTTTTCAGATTAACTCGCTTGAGTGACAGCTGCGTAAGCTTGAATATCAAACTCTAGCTCAGGGGGATTGAGATTCGTAGCGTATAAGTGCTGTTCATGCCGTTGATTTCGTTTTACATGTGATTTATTAGTATCGAGGAAGAACCGGATGTGTTACTGATAAACTTGGGCAATGTTTTTTATTTAAGCTTAAAGCTGTCAAGATACTGCAAAAGAAGATCTAAGATTGTGTTTACATGATGAATAATAAATTTGAAATAAAGAATTTAGAGGTTTTTTAGTTAATGAAAGAATTTGGTGCATACCTTTCAAGTGGTTGTATTAATAATAACTCAATACAACAAAGCCAGAGCACATCAAAAGGAAATATACATATCAAAAGAGTTATGAGCTCTGAAAAAAATTAAATGATAAAAAACCACGTTTGCTTAGTGATGATCAGGCGTCTCTTATAATTACAAGAACACTGAGAAAGAATATTGCACAAAAAGCCTATGCTCGCATGTTTTCGGAGGGTGATTATTGGAAGCGTA (double strand) [vtrA promoter EMSA probe]	binds	–
CGAGCGAATTACTATTTGGATCAAAGGTAAACCTTTGAGCAAGTAGAAATTTGGTGCCGATGTTAGTCATTTAGTTCTTCTTAGATGGATGATGTTGTAATTATGGTGATTTATATCACAAAATTACGTTTGCGCATGGGAGATACGCGACGTTTTAGATGCTTTTAGGGGGGTAGGATAATTAAATTTTTCTAAAAAAACACCGTTTTTAGCAATATTGACCTTGAATTTACATTTGTCAGCCACATGTTAAATGACATCTTAGTGTGGTGATTTCATGGGGCTAAATCACAAAGTCGTCCCTGAAAAAGCCTGTTAGTTTAGATGTTATGGAGCACACATGAGCGAAACCGTATCTCAAAATAAAGAAACTCGTGGTTTTCAATCAGAAGTAAAACAACTACTTCATTTAATGATCCATTCTCTTTATTCCAATAAAGAGATCTTTTTGCGCGAGCTGATTTCTAACGCATCAGATGCATCAGACAAATTGCGTTTTCAGGCACTTTCGAATCCAGATTTATATGAAGGTAACGCAGATCTTGGCGTTAAGCTGTCATTTGATGAAAGTGCAAATACCTTAACGAT (double strand) [toxR promoter EMSA probe]	binds	–
GCATTATTGACGCCAGTATCGATGGACAGATTCAGGCGTTAAAGCAAGCGATGGTGAAACAACTCAGTGAGCGGAAAATGACGTCACCAGAGTAGGGCATCACCGCCAAATCAATCGAACACAAAGCTCAGCACATTGCTGAGCTTTGTTGTTTTCAAACGTCTTAAAACGAAAAAAATCCGACCATCTTTAGCATATTAATCGCGCCGAATGATGAAAAATAACAGCATCAAAACGGCTCTGGGTCACTCTGTTTTCATGACTCGTCTGCCGAATTCGTAACAAGCACTATAGGATTATTCATTCAAATGGCTAATGGATTTATTACCGCTTTGATGACGGATTTTGCTCACCGTTGCC (double strand) [VP1687 promoter EMSA probe]	binds	–
